According to article PMC5735092 (Scientific Reports, 2017):

Legend:
IMPα/β1:C = IMPα/β1:C (Mus musculus, UniProt P52293); experiment: AlphaScreen IMPα/β1:C binding assay; conditions: read-out: IC50 ± SD, 15 nM IMPα/β1, 30 nM capsid
VEEV-TC83luc = experiment: VEEV TC-83 luciferase reporter virus replication assay (BrightGlo); format: cell-based, Venezuelan equine encephalitis virus; conditions: read-out: EC50 ± SD; Vero cells, 2 h pretreatment, 16 h post-infection

CC(OC(C)(C)C)C(NC(=O)C(CSC(C)(C)C)NC(=O)C(CCC(=O)OC(C)(C)C)NC(=O)OCC1c2ccccc2-c2ccccc21)C(=O)O (stereo not shown) showed an IC50 (IMPα/β1:C) of 21.9 µM and an EC50 (VEEV-TC83luc) greater than 50 µM.

In the case of COc1ccc(N2CCN(C(=O)c3cc(-c4cccnc4)nc4ccccc34)CC2)cc1, the IC50 (IMPα/β1:C) is reported as 36.2 µM.

With CCOc1ccc(C(=O)C2=C(O)C(=O)N(Cc3cccnc3)C2c2cccc(Oc3ccccc3)c2)cc1C (stereo not shown) the IC50 (IMPα/β1:C) was 22.1 µM.
